Test results from the supplement of paper PMC9931576.
Human monoclonal antibodies against the spike receptor-binding domain (heavy:light variable regions). IC50 against pseudoviruses bearing the spike of naturally observed variants; lower = stronger; >10 µg/ml means not reached at the top dose. No active / inactive call. The stated detection limit is 0.0005 µg/ml; values near or below 0.001 µg/ml lie at the floor of the assay.

B1: BD56-1444 (protein)
chain 1: QVQLVESGGGVVQPGRSLRLSCAASGFTFNTYAMHWVRQAPVAGLEWVATILSDGTGKFYADSVKGRFTISRDNSKNTLYLQMNSLRGEDTAVYYCARDSSSAHWLVSWFDPWGQGTLVTVSS
chain 2: DIQMTQSPSSLSASVGDRVTITCRASQSINNYLNWYQQKPGKAPTLLIYVASNLQSGVPSRFSGSGSGTDFTLTISSLQPEDFATYYCQQSYSTPPWTFGQGTKLEIK
B2: BD56-1458 (protein)
chain 1: EVQLVESGGGLVQPGRSLRLSCAASGLTFDDYAMHWVRQAPGKGLEWVSGVSWNSGTIGYADSVKGRFIIIRDNAKNSLYLQMNSLRAEDTALYYCGKDIGYGDYVSGGVHYWGRGTPVTVSS
chain 2: QSALTQPASVSGSPGQSITISCTGTSSDVGGYNSVSWYQQHPGKAPKLMLYDVTKRPSGVSNRFSGSKSGNTASLTISGLQAEDEADYYCSSYTSTSTYVFGTGTRVTVL
B3: BD56-1448 (protein)
chain 1: EVQLVESGGGLVKPGGSLRLSCAASGFSFSDAWMNWVRQAPGKGLEWVGRIKNKIDDATTDYAAPVNGRFSISRDDSKSTLYLQMNSLKTEDTAVYYCATGVDIVVMVYVDDAFDIWGQGTMVTVSS
chain 2: SSELTQDPAVSVALGQTVRITCQGDSLRNYYASWYQQKPGQAPVLVIYGKNNRPSGIPDRFSGSSSRNVASLTITGAQAEDEADYYCNSRDSSGNHVVFGGGTKLTVL
B4: BD56-1442 (protein)
chain 1: QVQLVESGGGLVKPGGSLRLSCTASGFTFSDYYMSWIRQAPGKGLEWVSYIDTRGRNIYYGDSVKGRFAMSRDNARNSLSLQMNSLRAEDTAVYYCARARVISEWFDEGYYMDVWGKGTSVTVYS
chain 2: EIVLTQSPGTLSSSPGERATLSCRASQSVSSTFLAWYQQKPGQAPRLLIYGASSRATGIPDRFSGSGSGTDFSLTISRLEPEDFAVYYCQQSDSSLAITFGQGTRLEIK
B5: BD56-1450 (protein)
chain 1: QLQLQESGPGLVKPSETLSLTCTVSGGSVSSRSYYWGWIRQPPGKGLEWIGSFSFSGSTYFNPSLKSRVTIPVDTSKNQFSLRLTSVTAADTAVYYCARVGGEGDYFDYWGQGSLVTVSS
chain 2: DIQMTQSPSTLPASVGDRVTITCRASQSISRWLAWYQQKPGKAPKLLIYMASNLESGVPSRFSGSGSGTEFTLTISSLQPDDFATYYCQQYNTYRTFGQGTKVEIK
B6: BD56-1441 (protein)
chain 1: EVQLVESGGGLVQPGGSLRLSCAASGFTFSSYDMHWVRQATGKGLEWVSVIGTAGDTYYSGSVKGRFTISRENAKNSVYLQMNSLRVGDTAVYYCARGDMIKVRGVTYYYYKMDVWGQGTTVTVSS
chain 2: DIQMTQSPSSLSASVGDRVTITCRASQSISSFLNWYQLKPGKAPKLLIYAAASLQSGVPSRFSGSGSGTDFTLTISSLQPEDFATYYCQQSYSQPEVTFGQGTRLEIK

The binders below were run against SARS-CoV-2 Omicron BA.1 spike pseudovirus (assay: pseudovirus neutralization IC50; higher = weaker neutralization).
Procedure: (§1)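 Single-round VSV luciferase pseudovirus mixed with antibody dilutions for 1 h and put on Huh-7 cells for about a day; IC50 from the dose curve.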
With B1 the “pseudovirus neutralization IC50” value was over 10 µg/mL. For B2, the “pseudovirus neutralization IC50” value was 0.0882 µg/mL. With B3 the “pseudovirus neutralization IC50” value was over 10 µg/mL. B4 was tested, and the “pseudovirus neutralization IC50” value was over 10 µg/mL. In the case of B5, the “pseudovirus neutralization IC50” value is reported as over 10 µg/mL. With B6 the “pseudovirus neutralization IC50” value was over 10 µg/mL.

What follows are binders tested against SARS-CoV-2 Omicron BA.2 spike pseudovirus in the same assay as above.
Procedure: as §1
In the case of B1, the “pseudovirus neutralization IC50” value is reported as over 10 µg/mL. B2 was tested, and the “pseudovirus neutralization IC50” value was 0.108 µg/mL. In the case of B3, the “pseudovirus neutralization IC50” value is reported as over 10 µg/mL. In the case of B4, the “pseudovirus neutralization IC50” value is reported as over 10 µg/mL. With B5 the “pseudovirus neutralization IC50” value was over 10 µg/mL. B6 was tested, and the “pseudovirus neutralization IC50” value was over 10 µg/mL.

What follows are binders tested against SARS-CoV-2 Omicron BA.2.75 spike pseudovirus in the same assay as above.
Procedure: as §1
For B1, the “pseudovirus neutralization IC50” value was over 10 µg/mL. B2 was tested, and the “pseudovirus neutralization IC50” value was 0.0956 µg/mL. With B3 the “pseudovirus neutralization IC50” value was over 10 µg/mL. In the case of B4, the “pseudovirus neutralization IC50” value is reported as over 10 µg/mL. In the case of B5, the “pseudovirus neutralization IC50” value is reported as over 10 µg/mL. B6 was tested, and the “pseudovirus neutralization IC50” value was over 10 µg/mL.

These binders were tested against SARS-CoV-2 Omicron BA.5 spike pseudovirus in the same assay as above.
Procedure: as §1
For B1, the “pseudovirus neutralization IC50” value was over 10 µg/mL. With B2 the “pseudovirus neutralization IC50” value was over 10 µg/mL. For B3, the “pseudovirus neutralization IC50” value was over 10 µg/mL. B4 was tested, and the “pseudovirus neutralization IC50” value was over 10 µg/mL. For B5, the “pseudovirus neutralization IC50” value was over 10 µg/mL. With B6 the “pseudovirus neutralization IC50” value was over 10 µg/mL.

Each binder was assayed against SARS-CoV-2 Omicron BQ.1.1 spike pseudovirus in the same assay as above.
Procedure: as §1
In the case of B1, the “pseudovirus neutralization IC50” value is reported as over 10 µg/mL. For B2, the “pseudovirus neutralization IC50” value was over 10 µg/mL. In the case of B3, the “pseudovirus neutralization IC50” value is reported as over 10 µg/mL. In the case of B4, the “pseudovirus neutralization IC50” value is reported as over 10 µg/mL. With B5 the “pseudovirus neutralization IC50” value was over 10 µg/mL. In the case of B6, the “pseudovirus neutralization IC50” value is reported as over 10 µg/mL.

What follows are binders tested against SARS-CoV-2 Omicron XBB spike pseudovirus in the same assay as above.
Procedure: as §1
In the case of B1, the “pseudovirus neutralization IC50” value is reported as over 10 µg/mL. With B2 the “pseudovirus neutralization IC50” value was over 10 µg/mL. In the case of B3, the “pseudovirus neutralization IC50” value is reported as over 10 µg/mL. In the case of B4, the “pseudovirus neutralization IC50” value is reported as over 10 µg/mL. B5 was tested, and the “pseudovirus neutralization IC50” value was over 10 µg/mL. For B6, the “pseudovirus neutralization IC50” value was over 10 µg/mL.

Each binder was assayed against SARS-CoV-2 early D614G spike pseudovirus in the same assay as above.
Procedure: as §1
With B1 the “pseudovirus neutralization IC50” value was 2.29 µg/mL. B2 was tested, and the “pseudovirus neutralization IC50” value was 0.0682 µg/mL. With B3 the “pseudovirus neutralization IC50” value was over 10 µg/mL. B4 was tested, and the “pseudovirus neutralization IC50” value was over 10 µg/mL. For B5, the “pseudovirus neutralization IC50” value was 0.172 µg/mL. In the case of B6, the “pseudovirus neutralization IC50” value is reported as over 10 µg/mL.
